A mixed list of measured activities; the numbers were collected in NIAID ChemDB.

Common to all: whole-cell or culture tests; agent: HIV-1; read-out: EC50

Rows are shuffled and stem from different studies. ECn: concentration that inhibits the pathogen or its effect by n%. An empty or dashed field is not shown.

smiles	setting	method	cell line	strain	changes	result
CCn1nc(Cc2cc(F)cc(F)c2)cc1C1CCN(C[C@H]2CN([C@@H](C(=O)O)C3CCCCC3)C[C@@H]2c2cccc(F)c2)CC1	50% human serum	β-galactosidase	HeLa	BaL	-	<0.011 µM
N#Cc1cc2[nH]c3ccccc3c2n(-c2ccc([N+](=O)[O-])cc2)c1=O	-	luciferase	HeLa	NNRTI-resistant	RT-G190S	0.265 µM
C#C[C@]1(CO)O[C@@H](n2cnc3c(N)nc(F)nc32)C[C@@H]1O	-	fluorescence	MT4-GFP	Clinical isolate	M184I	0.00656 µM
CCn1nc(Cc2ccccc2)cc1C1CCN(C[C@H]2CN([C@@H](C(=O)O)C3CCCCC3)C[C@@H]2c2cccc(F)c2)CC1	50% human serum	β-galactosidase	HeLa	BaL	-	<0.1 µM
Cc1ccnc2c1NC(=O)c1cccnc1N2C1CC1	-	XTT	CEM + CEM-SS	3TC-resistant (RT M184V)	RT-M184V	0.01 µM
CO[P@](=O)(c1cc(C)cc(/C=C/C#N)c1)c1c(C(N)=O)[nH]c2ccc(Cl)c(F)c12	-	-	U-937	IIIB	-	0.0005 µM
CCn1nc(Cc2ccc(C#N)cc2)cc1C1CCN(C[C@H]2CN([C@@H](C(=O)O)C3CCCCC3)C[C@@H]2c2cccc(F)c2)CC1	-	β-galactosidase	HeLa	BaL	-	<0.0004 µM
Cc1cn([C@H]2C[C@H](N=[N+]=[N-])[C@@H](CO)O2)c(=O)[nH]c1=O	-	luciferase	HeLa	Recombinant	RT-M41L V118I M184V	0.024 µM
CCCc1cc(=O)oc2c3c(c4c(c12)OC(C)(C)C=C4)O[C@@H](C)[C@H](C)[C@@H]3O	-	XTT	CEM + CEM-SS	NL4-3	RT-Y188C	1.7 µM
CCn1nc(Cc2ccc(O)cc2)cc1C1CCN(C[C@H]2CN([C@@H](C(=O)O)C(C)C)C[C@@H]2c2cccc(F)c2)CC1	50% human serum	β-galactosidase	HeLa	BaL	-	<0.033 µM
Cc1ccnc2c1NC(=O)c1cccnc1N2C1CC1	-	β-galactosidase	MAGI	NNRTI-resistant (RT K103N G190A)	RT-K103N G190A	>10 µM
CCc1c(C(=O)c2cc(C)cc(C)c2)n(CC2CC=CC2)c(=O)[nH]c1=O	-	cytopathic effect / XTT	CEM + CEM-SS	NL4-3	RT-Y181C	0.009 µM
O=c1[nH]cnc2c1ncn2[C@H]1CC[C@@H](CO)O1	-	plaque count	HT4 + HT4 LacZ-1	HXB2	RT-Y181C	1.3 µM
CCCc1cc(=O)oc2c3c(c4c(c12)OC(C)(C)C=C4)O[C@H](C)[C@@H](C)[C@@H]3O	-	XTT	CEM + CEM-SS	Diphenyl sulfone-resistant (RT-Y181C)	RT-Y181C	0.08 µM
Cc1cn([C@H]2C=C[C@@H](CO)O2)c(=O)[nH]c1=O	-	luciferase	HeLa	Recombinant	RT-M41L A62V S68N G112S V118I M184V	0.49 µM
CC(=O)N1CCC(C(=O)N(CCCN2CCC(Cc3ccc(C(N)=O)cc3)CC2)c2ccc(C)c(Cl)c2)CC1	-	luciferase	U87 (CD4+ CCR5+) + U87	R5 subtype B_4 recombinant	-	0.0072 µM
Cc1cn([C@H]2C[C@H](N=[N+]=[N-])[C@@H](CO)O2)c(=O)[nH]c1=O	-	XTT	CEM + CEM-SS	3TC-resistant (RT M184V)	RT-M184V	0.02 µM
CCOc1cccc(Cc2cc(C3CCN(C[C@H]4CN([C@@H](C(=O)O)[C@@H](C)CC)C[C@@H]4c4cccc(F)c4)CC3)n(CC)n2)c1	50% human serum	β-galactosidase	HeLa	BaL	-	<0.1 µM
CC(C)=CCN1c2cc(Cl)cc3[nH]c(=S)n(c23)C[C@@H]1C	-	-	MT-4	-	RT-L74V K103N	<0.8 µM

The last 2 rows once more:

| smiles | setting | method | cell line | strain | changes | result |
|---|---|---|---|---|---|---|
| CCOc1cccc(Cc2cc(C3CCN(C[C@H]4CN([C@@H](C(=O)O)[C@@H](C)CC)C[C@@H]4c4cccc(F)c4)CC3)n(CC)n2)c1 | 50% human serum | β-galactosidase | HeLa | BaL | - | <0.1 µM |
| CC(C)=CCN1c2cc(Cl)cc3[nH]c(=S)n(c23)C[C@@H]1C | - | - | MT-4 | - | RT-L74V K103N | <0.8 µM |